Measured values from several laboratories, pooled; numbers as filed in NIAID ChemDB.

Common to all: whole-cell or culture tests; organism: Candida albicans

Two numbers with a dash give a range or band.

compound	strain	read by	measure	result
O=C(CSc1nnc(-c2ccc(N=Cc3cccs3)cc2)o1)Nc1ccccc1	MTCC 227	broth dilution	MIC	500 µg/mL
Clc1ccc(C(CCCOc2ccccc2Br)Cn2ccnc2)c(Cl)c1	-	-	MIC	100 µg/mL
CO[C@H]1C[C@@H]2CC[C@@H](C)[C@@](O)(O2)C(=O)C(=O)N2CCCC[C@H]2C(=O)O[C@H]([C@H](C)C[C@@H]2CC[C@@H](C(=O)ON3CCCCC3)[C@H](OC)C2)CC(=O)[C@H](C)/C=C(\C)[C@@H](O)[C@@H](OC)C(=O)[C@H](C)C[C@H](C)CCCC/C=C/1C	442	-	MIC	>100 µg/mL
Clc1ccc(C(COc2ccc(Br)cc2)Cn2ccnc2)c(Cl)c1	-	-	MIC	100 µg/mL
COc1ccc2c(c1)C1=C(CS2)C(c2ccc3c(c2)OCO3)C(C#N)=C(N)O1	-	-	MIC	6 µg/mL
COc1cc(O)c2c(c1)C(=O)c1c(cc3c(c1O)-c1c(cc(C)c(C(=O)NC(CO)C(=O)O)c1O)[C@H](OC1OC(C)C(O)C(OC4OCC(O)C(O)C4O)C1O)C3O)C2=O	83-2-14 (Juntendo)	-	MIC	12.5 µg/mL
Nc1[nH]c(=O)ncc1F	2716	-	MIC	0.13 µg/mL
O=C(CSc1nnc(-c2ccc(N=Cc3cccs3)cc2)o1)Nc1ccc(F)cc1	MTCC 227	broth dilution	MIC	1000 µg/mL
CSc1cc(C(N)=S)ccn1	176	-	MFC	>200 µg/mL
COc1ccc(/C=C2/SC(c3cccc(Br)c3)N(NC(=O)c3ccc(-c4ccccc4)cc3)C2=O)cc1	MTCC 8184	-	MIC	6.25 µg/mL
CCCC[C@@H](C)/C=C(C)/C=C(\C)C(=O)N/C(=C/[C@@](C)(O)/C=C/C=C/C=C/C(=O)NC1=C(O)CCC1=O)C(=O)[C@@H]1CO1	3	broth dilution	MIC	13 µM
CNC(=S)N/N=C(\C)c1ccc(Nc2nc(C)nc3sc4c(c23)CCCC4)cc1	-	-	MIC	210 µg/mL
Cc1ccc(-c2c3c(N)c4c(nc3nc3c2c(C)nn3-c2ccccc2)CCCCC4)cc1	ATCC 10231	broth dilution / absorbance	MIC50	62.5 µg/mL
Cc1c(Sc2ccccc2)[n+](=O)c2cc(Cl)ccc2n1[O-]	Clinical isolate 8	-	MIC	31.25 µg/mL
CN(C)CCCNc1snc(C(=O)Nc2cc(C(=O)Nc3cc(C(=O)Nc4cc(C(=O)NCCCCN)n(C)c4)n(C)c3)n(C)c2)c1Cl	38247	-	MIC	8 µg/mL
CO[C@@H]1C[C@H](C[C@@H](C)[C@@H]2CC(=O)[C@H](C)/C=C(\C)[C@@H](O)[C@@H](OC)C(=O)[C@H](C)C[C@H](C)/C=C/C=C/C=C(\C)[C@H](N(OC)C(=O)N(C)C)C[C@@H]3CC[C@@H](C)[C@@](O)(O3)C(=O)C(=O)N3CCCC[C@H]3C(=O)O2)CC[C@H]1C(=O)ON(C)O	62376	-	MIC	>100 µg/mL
CC(=O)N1CCN(c2ccc(OCC3COC(Cn4ccnc4)(c4ccc(-c5ccccc5)cc4)O3)cc2)CC1	44 strains	-	Mean MIC	29.7 µg/mL
CCCCCCNCCNc1snc(C(=O)Nc2cc(C(=O)Nc3cc(C(=O)Nc4cc(C(=O)NCCCN(C)C)n(C)c4)n(C)c3)n(C)c2)c1Cl	38247	-	MIC	>32 µg/mL
CCCCCCSc1cc(C(N)=S)ccn1	176	-	MIC	25 µg/mL
CC(C)C1=C[C@H]2C[C@]3(C=O)[C@@H]4CC[C@@H](C)[C@H]4C[C@@]2(CO[C@H]2C[C@@H]4OC(C)(C)O[C@@H]4[C@@H](C)O2)[C@]13C(=O)O	Isolate CL-245 (fluconazole-resistant)	-	MIC	<0.01 µg/mL
N#CC1=C(N)OC2=C(CSc3ccc(Cl)cc32)C1c1ccccc1	-	-	MIC	50 µg/mL
CCCCCSc1cc(C(N)=S)ccn1	176	-	MFC	100 µg/mL
C/C(=N\N)c1ccc(Nc2nc(C)nc3sc4c(c23)CCCC4)cc1	-	-	MIC	155 µg/mL
OC[C@@H]1CO[C@](Cn2ccnc2)(c2ccc(-c3ccccc3)cc2)O1	44 strains	-	MIC50	128 µg/mL
N#CC1=C(N)OC2=C(CSc3ccccc32)C1c1cccc2ccccc12	-	-	MIC	25 µg/mL
Fc1ccc(OCCC(Cn2ccnc2)c2ccc(Cl)cc2Cl)cc1	-	-	MIC	10 µg/mL
CO[C@@H]1C[C@H](C[C@@H](C)[C@@H]2CC(=O)[C@H](C)/C=C(\C)[C@@H](O)[C@@H](OC)C(=O)[C@H](C)C[C@H](C)/C=C/C=C/C=C(\C)[C@@H](N(OC)C(=O)N(C)C)C[C@@H]3CC[C@@H](C)[C@@](O)(O3)C(=O)C(=O)N3CCCC[C@H]3C(=O)O2)CC[C@H]1C(=O)ON(C)O	442	-	MIC	50 µg/mL
Clc1ccc(C(CCOc2ccccc2)Cn2ccnc2)c(Cl)c1	-	-	MIC	10 µg/mL
COc1ccc2c(c1)-c1nc(OC)c(C#N)c(-c3ccc4c(c3)OCO4)c1CS2	-	-	MIC	25 µg/mL
Clc1ccc(C(CCOc2ccc(Br)cc2)Cn2ccnc2)c(Cl)c1	-	-	MIC	<10 µg/mL
COc1ccc(C2C(C#N)=C(N)OC3=C2CSc2ccccc23)cc1	-	-	MIC	100 µg/mL
O=C(NN1C(=O)/C(=C\c2cccc([N+](=O)[O-])c2)SC1c1ccc(F)cc1)c1ccc(-c2ccccc2)cc1	MTCC 8184	-	MIC	6.25 µg/mL
Cc1c(S(=O)(=O)c2ccccc2)[n+](=O)c2ccccc2n1[O-]	Clinical isolate 12	-	MIC	31.25 µg/mL
CC1(C)CCC[C@]2(C)[C@@H](C=O)C(C=O)=CC[C@@H]12	ATCC 18804 and ATCC 28815 26555 24433 64544 64550	-	MIC	0.78–1.56 µg/mL
Cc1ccc(-c2c3c(N)c4c(nc3nc3c2c(C)nn3-c2ccccc2)CCC4)cc1	ATCC 10231	broth dilution / absorbance	MIC50	62.5 µg/mL
O=C(OC[C@H]1CO[C@](Cn2ccnc2)(c2ccc(-c3ccccc3)cc2)O1)c1ccccc1	44 strains	-	EC50	8 µg/mL
Cn1cc(NC(=O)c2cc(NC(=O)c3cc(NC(=O)c4nsc(Cl)c4Cl)cn3C)cn2C)cc1C(=O)NCCC(=N)N	38247	-	MIC	0.5 µg/mL
N#CC1=C(c2ccccc2)C2=C(NC1O)c1ccccc1SC2	-	-	MIC	50 µg/mL
CO[C@H]1C[C@@H]2CC[C@@H](C)[C@@](O)(O2)C(=O)C(=O)N2CCCC[C@H]2C(=O)O[C@H]([C@H](C)C[C@@H]2CC[C@@H](C(=O)ON3CCOCC3)[C@H](OC)C2)CC(=O)[C@H](C)/C=C(\C)[C@@H](O)[C@@H](OC)C(=O)[C@H](C)C[C@H](C)CCCC/C=C/1C	38247	-	MIC	>100 µg/mL
NC(=S)c1ccnc(SC2CCCCC2)c1	42	-	MIC	100 µg/mL
CN(CCCC#CC(C)(C)C)c1cccc2c1CCC(=O)N2	Clinical isolate 17	-	MIC	31.25 µg/mL
Cn1cc(NC(=O)c2cc(NC(=O)c3cc(NC(=O)c4nsc(N5CCCCC5)c4Cl)cn3C)cn2C)cc1C(=O)NCCCNC1CCCCC1	38247	-	MIC	8 µg/mL
O=C(NN1C(=O)/C(=C\c2cccc([N+](=O)[O-])c2)SC1c1ccccc1)c1ccc(-c2ccccc2)cc1	MTCC 8184	-	MIC	3.12 µg/mL
Cc1ccc(-c2c3c(N)c4c(nc3nc3c2c(C)nn3-c2ccccc2)CCCC4)cc1	CCC 127	broth dilution / absorbance	MIC100	31.2 µg/mL
c1ccc(N2CCC(n3cc(CN4CCc5sccc5C4)nn3)CC2)cc1	NCIM3471	agar	MIC	50 µg/mL
Cc1nc(Nc2ccc(C3=NOC(c4ccc([N+](=O)[O-])cc4)C3)cc2)c2c3c(sc2n1)CCCC3	-	-	MIC	110 µg/mL
CCOc1nc2c(c(-c3ccc4ccccc4c3)c1C#N)CSc1ccc(Cl)cc1-2	-	-	MIC	50 µg/mL
CCOc1cc2c(cc1F)n([O-])c(C)c(Cl)[n+]2=O	Clinical isolate 22	-	MIC	31.25 µg/mL
Cc1ccccc1NC(=O)CSc1nnc(-c2ccc(N=Cc3cccs3)cc2)o1	MTCC 227	broth dilution	MIC	500 µg/mL
O=C(NN1C(=O)/C(=C\c2ccc(Cl)cc2)SC1c1ccccc1)c1ccc(-c2ccccc2)cc1	MTCC 8184	-	MIC	1.56 µg/mL
CN(C)CCCNC(=O)c1cc(NC(=O)c2cc(NC(=O)c3cc(NC(=O)c4nsc(NCCN5CCNCC5)c4Cl)cn3C)cn2C)cn1C	38247	-	MIC	4 µg/mL
COC1CC2CCC(C)C(O)(O2)C(=O)C(=O)N2CCCCC2C(=O)OC(C(C)CC2CCC(O)C(OC)C2)CC(=O)C(C)/C=C(\C)[C@@](O)(c2ccc(C)s2)C(OC)C(=O)C(C)CC(C)/C=C/C=C/C=C/1C	RBP1/RBP1	-	MIC	>100 µg/mL
O=C(CSc1nnc(-c2ccc(N=Cc3cccs3)cc2)o1)Nc1ccc(Cl)cc1	MTCC 227	broth dilution	MIC	100 µg/mL
CCC(C)CC(C)CCCCCCCCC(=O)N[C@H]1C[C@@H](O)[C@H](NCCN)NC(=O)[C@@H]2[C@@H](O)CCN2C(=O)[C@H]([C@H](O)CCN)NC(=O)[C@H]([C@H](O)[C@@H](O)c2ccc(O)cc2)NC(=O)[C@@H]2C[C@@H](O)CN2C(=O)[C@H]([C@@H](C)O)NC1=O	-	broth dilution	MIC50	1 µg/mL
CS(=O)(=O)OC[C@H]1CO[C@](Cn2ccnc2)(c2ccc(-c3ccccc3)cc2)O1	44 strains	-	Mean MIC	>256 µg/mL
COC1CC2CCC(C)C(O)(O2)C(=O)C(=O)N2CCCCC2C(=O)OC(C(C)CC2CCC(O)C(OC)C2)CC(=O)C(C)/C=C(\C)C(O)[C@@](OC)(N(O)C(=O)OCC(C)C)C(=O)C(C)CC(C)/C=C/C=C/C=C/1C	TOR1-1/TOR1	-	MIC	>100 µg/mL
Cc1nn(-c2ccccc2)c2nc3nc4c(c(N)c3c(-c3ccc(Cl)cc3)c12)CCC4	ATCC 10231	broth dilution / absorbance	MIC50	125 µg/mL

A second listing of 6 rows from above:

| compound | strain | read by | measure | result |
|---|---|---|---|---|
| CO[C@@H]1C[C@H](C[C@@H](C)[C@@H]2CC(=O)[C@H](C)/C=C(\C)[C@@H](O)[C@@H](OC)C(=O)[C@H](C)C[C@H](C)/C=C/C=C/C=C(\C)[C@@H](N(OC)C(=O)N(C)C)C[C@@H]3CC[C@@H](C)[C@@](O)(O3)C(=O)C(=O)N3CCCC[C@H]3C(=O)O2)CC[C@H]1C(=O)ON(C)O | 442 | - | MIC | 50 µg/mL |
| CCC(C)CC(C)CCCCCCCCC(=O)N[C@H]1C[C@@H](O)[C@H](NCCN)NC(=O)[C@@H]2[C@@H](O)CCN2C(=O)[C@H]([C@H](O)CCN)NC(=O)[C@H]([C@H](O)[C@@H](O)c2ccc(O)cc2)NC(=O)[C@@H]2C[C@@H](O)CN2C(=O)[C@H]([C@@H](C)O)NC1=O | - | broth dilution | MIC50 | 1 µg/mL |
| COC1CC2CCC(C)C(O)(O2)C(=O)C(=O)N2CCCCC2C(=O)OC(C(C)CC2CCC(O)C(OC)C2)CC(=O)C(C)/C=C(\C)[C@@](O)(c2ccc(C)s2)C(OC)C(=O)C(C)CC(C)/C=C/C=C/C=C/1C | RBP1/RBP1 | - | MIC | >100 µg/mL |
| O=C(NN1C(=O)/C(=C\c2cccc([N+](=O)[O-])c2)SC1c1ccccc1)c1ccc(-c2ccccc2)cc1 | MTCC 8184 | - | MIC | 3.12 µg/mL |
| CC(=O)N1CCN(c2ccc(OCC3COC(Cn4ccnc4)(c4ccc(-c5ccccc5)cc4)O3)cc2)CC1 | 44 strains | - | Mean MIC | 29.7 µg/mL |
| Cc1ccc(-c2c3c(N)c4c(nc3nc3c2c(C)nn3-c2ccccc2)CCCC4)cc1 | CCC 127 | broth dilution / absorbance | MIC100 | 31.2 µg/mL |

Blank or dashed fields: not listed here. A number after MIC or MFC names an inhibition level or a share of isolates. ECn: concentration that inhibits the pathogen or its effect by n%. Rows are shuffled and stem from different studies.